From ChEMBL document CHEMBL1138621, “Inhibition of tRNA-dependent ligase MurM from Streptococcus pneumoniae by phosphonate and sulfonamide inhibitors” (Bioorg Med Chem, 2009)

System: Streptococcus pneumoniae
Experiment: Inhibition of penicillin-resistant Streptococcus pneumoniae 159 recombinant MurM at 1 mM by liquid scintillation counting

For `CP(=O)(O)O[C@H]1C[C@H](n2cnc3c(N)ncnc32)O[C@@H]1CO`, the inhibition was 7%.
